A mixed list of measured activities; the numbers were collected in NIAID ChemDB.

All rows: whole-cell or culture tests; species: Herpes simplex virus 2; cell line: VERO; endpoint: EC50

An empty or dashed field is not shown. Lines come from different laboratories, so protocols vary. ECn is the concentration giving n% inhibition of infection, replication or growth. Two numbers with a dash give a range or band.

SMILES | strain or isolate | method | result
CCCn1cc(C(N)=O)c(=O)c2ccc(-c3ccncc3)cc21 | Curtis | plaque count | >6.25 µg/mL
Fc1ccc2cc(-c3ccccc3)cn2c1 | 186 | plaque count | >100 µM
Cc1cn([C@@H]2O[C@H](CO)[C@@H](O)[C@@H]2F)c(=O)[nH]c1=O | G-FAC-C1 | plaque count | 8.6 µM
Cn1cc(C(=O)NCc2ccc(Cl)cc2)c(=O)c2cc(CN3CCOCC3)ccc21 | 186 | plaque count | 2.3 µM
Nc1nc2c(ncn2CC(CO)CCO)c(=O)[nH]1 | 72 | plaque count | 10 µM
Cc1cn([C@@H]2O[C@H](CO[Si](C)(C)C(C)(C)C)C3(O[C@H]3C(=O)NN)[C@H]2O[Si](C)(C)C(C)(C)C)c(=O)[nH]c1=O |  | plaque count | >5.5 µM
CCCn1cc2c(=O)ncnc-2c2ccc(-c3ccncc3)cc21 |  | plaque count | >100 µg/mL
Nc1nc(=O)n([C@@H]2O[C@H](CO)[C@@H](O)[C@@H]2F)cc1I | G-FMAU-C1 | plaque count | 18 µM
O=[N+]([O-])c1cccc(-c2cc3ccccn3c2)c1 | 186 | plaque count | >100 µM
COC(=O)/C=C1/[C@@H](O[Si](C)(C)C(C)(C)C)[C@H](n2ccc(=O)[nH]c2=O)O[C@@H]1CO[Si](C)(C)C(C)(C)C |  | plaque count | >38 µM
Cc1cn([C@@H]2O[C@H](CO)[C@@H](O)[C@@H]2F)c(=O)[nH]c1=O | G | plaque count | 0.8 µM
Nc1nc2c(ncn2CC[C@@H](O)CO)c(=O)[nH]1 | B4327 | plaque count | 11 µM
CCCCCCCCCC(=O)OCC(CO[C@@H]1O[C@H](CO)[C@@H](O)[C@H](O)[C@H]1O)OC(=O)CCCCCCCCC | 186 | plaque count | >50 µg/mL
CC(=O)OCCOCn1c(-c2ccccc2)c(N)c(C#N)c1-c1ccccc1 |  | plaque count | >300 µM
CCCCCCCC/C=C\CCCCCCCC(=O)OCC(CO[C@@H]1O[C@H](CO)[C@@H](O)[C@H](O)[C@H]1O)OC(=O)CCCCCCC/C=C\CCCCCCCC | 186 | plaque count | >50 µg/mL
Cc1cc(C)c(OC(=O)c2ccc(Cl)cc2)c(=O)c(C)c1 | Clinical isolate | plaque count | 4.12 µM
CCCCc1ccc2cc(-c3ccccc3)cn2c1 | 186 | plaque count | >100 µM
NC(=O)c1cn(-c2ccccc2F)c2cc(-c3ccncc3)ccc2c1=O | Curtis | plaque count | >1.6 µg/mL
O=C(O[C@@H]1[C@@H](c2c(O)cc(O)c3c2O[C@H](c2cc(O)c(O)c(O)c2)[C@H](OC(=O)c2cc(O)c(O)c(O)c2)C3)c2c(O)cc(O)cc2O[C@@H]1c1cc(O)c(O)c(O)c1)c1cc(O)c(O)c(O)c1 | 196 | XTT | 5.3 µM
COC(O)[C@@H]1OC12[C@@H](CO[Si](C)(C)C(C)(C)C)O[C@@H](n1cc(C)c(=O)[nH]c1=O)[C@@H]2O[Si](C)(C)C(C)(C)C |  | plaque count | >23 µM
CC(C)c1ccc(O)c(O)c(=O)c1 | Clinical isolate | plaque count | 1.69 µM
Nc1nc2c(ncn2COCCO)c(=O)[nH]1 | G | plaque count | 0.5 µM
O=c1[nH]c(=O)n([C@@H]2O[C@H](CO)[C@@H](O)[C@@H]2F)cc1I | G-FAU-C2 | plaque count | 29 µM
c1ccc(-c2cc3ccccn3c2)cc1 | 186 | plaque count | >100 µM
CCCn1cc2c(=O)n(-c3ccccc3)nc-2c2ccc(-c3ccncc3)cc21 |  | plaque count | >100 µg/mL
OCCOCn1c(-c2ccccc2)c(Br)c(-c2ccccc2)c1-c1ccccc1 |  | plaque count | >15 µM
CC(C)(C)[Si](C)(C)O[C@H]1[C@H](n2ccc(=O)[nH]c2=O)O[C@H](CO)C1(O)C(N=[N+]=[N-])C(N)=O |  | plaque count | >100 µM
CCCCC/C=C\C/C=C\CCCCCCCC(=O)OCC(CO[C@@H]1O[C@H](CO)[C@@H](O)[C@H](O)[C@H]1O)OC(=O)CCCCCCC/C=C\C/C=C\CCCCC | 186 | plaque count | 50 µg/mL
CCOC(=O)c1c(Br)c(-c2ccccc2)n(COCCO)c1-c1ccccc1 |  | plaque count | >64 µM
CC(C)(C)c1ccc(-n2cc(C(N)=O)c(=O)c3ccc(-c4ccncc4)cc32)cc1 | Curtis | plaque count | >25 µg/mL
CC(=O)c1c(-c2ccc(OC(F)(F)F)cc2)cc2ccccn12 | 186 | plaque count | >100 µM
Cn1cc(C(=O)NCc2ccc(Cl)cc2)c(=O)c2cc(/C=C\CO)cc(F)c21 |  | plaque count | 2 µM
Nc1nc2c(ncn2CCCCO)c(=O)[nH]1 | 91075 (acyclovir-resistant) | plaque count | >250 µM
O=C(O)c1cccn2cc(-c3ccccc3)cc12 | 186 | plaque count | >100 µM
CCCCCCCCCCCCCCCCCCCCCC(=O)OCC(CO[C@@H]1O[C@H](CO)[C@@H](O)[C@H](O)[C@H]1O)OC(=O)CCCCCCCCCCCCC | 186 | plaque count | >50 µg/mL
CC(=O)OCCOCn1c(-c2ccccc2)cc([N+](=O)[O-])c1-c1ccccc1 |  | plaque count | >66 µM
O=c1[nH]c(=O)n([C@H]2C[C@H](O)[C@@H](CO)O2)cc1/C=C/Br | MS | plaque count | 5.8 µM
C=C(C)[C@@H]1CCc2c(O)c(O)c(=O)cc(C)c2C1 | Clinical isolate | plaque count | 0.58 µM
FC(F)(F)c1cc(Cl)c2cc(-c3ccccc3)cn2c1 | 186 | plaque count | 50–100 µM
O=C(O)P(=O)(O)O | G-FAC-C1 | plaque count | 18 µM
c1ccn2cc(-c3ccoc3)cc2c1 | 186 | plaque count | >100 µM
Nc1nc2c(ncn2CCCC(CO)CO)c(=O)[nH]1 | 91075 (acyclovir-resistant) | plaque count | 230 µM

The last 4 rows once more:

SMILES	strain or isolate	method	result
FC(F)(F)c1cc(Cl)c2cc(-c3ccccc3)cn2c1	186	plaque count	50–100 µM
O=C(O)P(=O)(O)O	G-FAC-C1	plaque count	18 µM
c1ccn2cc(-c3ccoc3)cc2c1	186	plaque count	>100 µM
Nc1nc2c(ncn2CCCC(CO)CO)c(=O)[nH]1	91075 (acyclovir-resistant)	plaque count	230 µM